Measurements from US8076310B2, “Phosphonate nucleosides useful as active ingredients in pharmaceutical compositions for the treatment of viral infections, and intermediates for their production” (K.U.Leuven Research & Development, priority 2004, dated 2011).

How the values were obtained:
[1] = target: T1, HIV reverse transcriptase (Human immunodeficiency virus type 1 group M subtype B, UniProt P04585); assay: Primer/extension assay with HIV reverse transcriptase (DNA template, DNA primer); conditions: compared with natural dATP
Source text: The antiviral activity of the phosphonate nucleosides of the invention may be mostly explained by their intracellular metabolisation into their diphosphates (hereinafter referred as pp) followed by incorporation into the viral genome and chain termination. We used a primer/extension assay in order to compare the ability of the HIV reverse transcriptase and the human DNA polymerase-α to accept PMDTApp (see FIG. 15) as a substrate in comparison to deoxy-adenosine triphosphate (hereinafter referred as dATP). This will provide us with suitable information about the selectivity of the anti-HIV compound of the invention since the human DNA polymerase-α is mainly involved in replication of the nuclear genome while the HIV reverse transcriptase plays a key role in the replication of the viral genome.
The following incorporation study was effected with a DNA template and a DNA primer, as DNA polymerase-α and reverse transcriptase are both able to synthesize double stranded DNA (although reverse transcriptase is also able to synthesize a DNA strand using RNA as template). Both enzymes were able to extend a DNA primer with the phosphonate nucleotide, but the modified nucleotide was only a very poor substrate for the human DNA polymerase α.

[2] = target: T1, HIV reverse transcriptase; assay: Steady-state kinetics of nucleotide incorporation in a DNA hybrid by HIV reverse transcriptase
Protocol: Determination of Km and Kcat values for the incorporation of dATP and PMDTApp in a DNA hybrid was carried out under steady-state conditions as described by Creighton et al. in Methods in Enzymology (1995) 262:232-256. For each determination eight different substrate concentrations in the range of 0.1 to 12.5 μM were used. Results given below are the average of three independent determinations. The reaction mixture contained 250 nM primer/template complex 0.025 U/μL HIV reverse transcriptase, and the triphosphate nucleotides to be incorporated (dATP and PMDTApp, respectively). The template sequence and the primer sequence used in this experiment are shown below. The reaction was quenched after 1, 2 and 3 minutes by adding a double volume of stop solution (90% formamide, 0.05% bromophenol blue, 0.05% xylene cyanol and 50 mM EDTA). Samples were analyzed by gel electrophoresis on a 16% polyacrylamide ureum gel in TBE buffer (89 mM Tris-borate, 2 mM EDTA buffer, pH 8.3) after heating the samples for 5 minutes at 70° C. Products were visualised by phosphorimaging. The amount of radioactivity in the bands corresponding to the products of the enzymatic reactions was determined using the Optiquant Image Analysis Software (Packard). Rate profiles were determined using GraphPad Prism® software.

[3] = steady-state, 0.025 U/μL HIV reverse transcriptase, 250 nM primer/template, average of three determinations

In the case of `Nc1ncnc2c1ncn2C1CC(OCP(=O)(O)OP(=O)(O)OP(=O)(O)O)CO1` (stereo not shown), the “Acceptance as substrate by HIV reverse transcriptase” value [1] is reported as “as easily as the natural building block”, the “Overall catalytic efficiency, factor of difference compared to dATP” value ([2]; HIV reverse transcriptase) is reported as 2.5 and the Kcat [2, 3] is reported as 0.79 min − 1. The Km [2, 3] was 0.29 µM.
